# Values from PubChem BioAssay AID1224833 (University of Georgia, 2016).
# Aim: 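Host factors restraining rotavirus as candidate antiviral genes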 (primary screen)
# Cells: monkey MA104 kidney cells
# Reagents: siRNA pool against human genes, 50 nM
# Time to read-out: 48 h knock-down before infection; read 24 h after infection
# Conditions: infection with rotavirus strain RV3 two days after transfection; infectious dose for this stage not given
# Read-out: 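z-score of rotavirus antigen signal per well, from a fluorescent immunoassay, relative to non-targeting control wells on the same plate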
# Direction: z-score vs non-targeting control: higher = more rotavirus replication than with non-targeting control
# Active means: In these data the active calls have z-score vs non-targeting control at about -1 or lower, or at about 1 or higher
# Meaning of the calls: active = z-score beyond 1 either way; inactive = z-score within 1 of zero
# In all, the deposit lists about 12,000 reagents; below is an unselected part. In the full data, about 5,600 (46%) are marked active. 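Active calls cover z-scores past 1 in both directions, so they include lowered as well as raised rotavirus replication.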
gene,z-score vs non-targeting control,Outcome
MYL12B (myosin light chain 12B),-1.68,active
KIAA0232,-0.473,inactive
RPL37A (ribosomal protein L37a),1.82,active
ACTN3 (actinin alpha 3),0.628,inactive
MLXIP (MLX interacting protein),-1.6,active
USP36 (ubiquitin specific peptidase 36),-0.751,inactive
ARVCF (ARVCF delta catenin family member),-2.58,active
CHDH (choline dehydrogenase),-1.99,active
SF1 (splicing factor 1),-1.35,active
FOLR1 (folate receptor alpha),-2.05,active
RBBP8NL (RBBP8 N-terminal like),-0.0688,inactive
CKAP4 (cytoskeleton associated protein 4),-0.979,inactive
TVP23B (trans-golgi network vesicle protein 23 homolog B),-0.599,inactive
VKORC1 (vitamin K epoxide reductase complex subunit 1),0.711,inactive
ZDHHC21 (zDHHC palmitoyltransferase 21),0.704,inactive
SERPINB10 (serpin family B member 10),-0.342,inactive
KIAA0825,-0.586,inactive
PLS3 (plastin 3),0.837,inactive
ATL1 (atlastin GTPase 1),-1.78,active
TP53TG3 (TP53 target 3),-0.755,inactive
"HAAO (3-hydroxyanthranilate 3,4-dioxygenase)",-1.23,active
CLDND1 (claudin domain containing 1),1.05,active
MIS12 (MIS12 kinetochore complex component),0.118,inactive
SPIN1 (spindlin 1),-0.911,inactive
FOXD1 (forkhead box D1),0.941,inactive
ANKRD2 (ankyrin repeat domain 2),-2.24,active
NAGS (N-acetylglutamate synthase),0.529,inactive
CITED4 (Cbp/p300 interacting transactivator with ED-rich tail 4),1.69,active
NOP14 (NOP14 nucleolar protein),0.0819,inactive
KRTAP3-1 (keratin associated protein 3-1),-2.61,active
XRCC5 (X-ray repair cross complementing 5),-0.928,inactive
C1orf52 (chromosome 1 open reading frame 52),0.845,inactive
ANKH (ANKH inorganic pyrophosphate transport regulator),-1.21,active
ADCY7 (adenylate cyclase 7),-0.627,inactive
GPR75 (G protein-coupled receptor 75),-1.51,active
UNC13D (unc-13 homolog D),0.023,inactive
SYT1 (synaptotagmin 1),-0.8,inactive
HNRNPF (heterogeneous nuclear ribonucleoprotein F),0.705,inactive
GPR32 (G protein-coupled receptor 32),-0.503,inactive
KLHL3 (kelch like family member 3),-0.552,inactive
HRCT1 (histidine rich carboxyl terminus 1),-0.133,inactive
SIKE1 (suppressor of IKBKE 1),1.19,active
FAM193B (family with sequence similarity 193 member B),-0.79,inactive
SDC1 (syndecan 1),0.82,inactive
"GIMAP5 (GTPase, IMAP family member 5)",-0.872,inactive
GALNT1 (polypeptide N-acetylgalactosaminyltransferase 1),0.955,inactive
ESRRB (estrogen related receptor beta),0.594,inactive
SCG2 (secretogranin II),-0.899,inactive
OR2A12 (olfactory receptor family 2 subfamily A member 12),-1.61,active
VWA7 (von Willebrand factor A domain containing 7),1.2,active
PPL (periplakin),-0.851,inactive
CRYBB1 (crystallin beta B1),-0.761,inactive
SLC1A5,-0.72,inactive
SLC25A12,-1.1,active
"PCDHGA8 (protocadherin gamma subfamily A, 8)",0.886,inactive
CYYR1 (cysteine and tyrosine rich 1),-0.819,inactive
EHD2 (EH domain containing 2),-1.76,active
ZNF415 (zinc finger protein 415),-1.26,active
PTGES2 (prostaglandin E synthase 2),-1.22,active
NMS (neuromedin S),-1.07,active
STAP2 (signal transducing adaptor family member 2),-0.931,inactive
"RAB13 (RAB13, member RAS oncogene family)",-1.15,active
PSMA4 (proteasome 20S subunit alpha 4),2.16,active
NHLH1 (nescient helix-loop-helix 1),-1.12,active
RAB5IF (RAB5 interacting factor),0.95,inactive
PDE6H (phosphodiesterase 6H),1.13,active
THOC3 (THO complex subunit 3),0.0408,inactive
SDCBP2 (syndecan binding protein 2),-0.733,inactive
SMG7 (SMG7 nonsense mediated mRNA decay factor),-0.862,inactive
TH (tyrosine hydroxylase),-1,inactive
CPA1 (carboxypeptidase A1),0.575,inactive
GMEB1 (glucocorticoid modulatory element binding protein 1),-0.82,inactive
PVR (PVR cell adhesion molecule),-1.82,active
SLC4A1,0.783,inactive
CARD19 (caspase recruitment domain family member 19),-1.51,active
NAPG (NSF attachment protein gamma),-2.23,active
NEIL1 (nei like DNA glycosylase 1),0.844,inactive
COX6B1 (cytochrome c oxidase subunit 6B1),0.854,inactive
PRR22 (proline rich 22),2.48,active
OMA1 (OMA1 zinc metallopeptidase),0.68,inactive
LRRN1 (leucine rich repeat neuronal 1),-1.63,active
DAZ3 (deleted in azoospermia 3),-1.15,active
PRH1 (proline rich protein HaeIII subfamily 1),-1.9,active
LRRC15 (leucine rich repeat containing 15),-1.16,active
MFGE8 (milk fat globule EGF and factor V/VIII domain containing),-0.73,inactive
CABLES1 (Cdk5 and Abl enzyme substrate 1),-0.316,inactive
SLC18B1,-0.883,inactive
SRPX2 (sushi repeat containing protein X-linked 2),0.21,inactive
YWHAB,0.0357,inactive
ARHGAP4 (Rho GTPase activating protein 4),0.0863,inactive
RPL36 (ribosomal protein L36),-2.79,active
ICAM2 (intercellular adhesion molecule 2),0.47,inactive
NOM1 (nucleolar protein with MIF4G domain 1),1.28,active
SUSD2 (sushi domain containing 2),-2.86,active
RASGRF2 (Ras protein specific guanine nucleotide releasing factor 2),0.0327,inactive
TWIST1 (twist family bHLH transcription factor 1),-1.41,active
C1orf198 (chromosome 1 open reading frame 198),-1.31,active
PRR14L (proline rich 14 like),-1.66,active
UNC13C (unc-13 homolog C),-1.3,active
NACC1 (nucleus accumbens associated 1),-2.85,active
CYB5R2 (cytochrome b5 reductase 2),0.733,inactive
RUBCNL (rubicon like autophagy enhancer),0.747,inactive
PARM1 (prostate androgen-regulated mucin-like protein 1),1.08,active
SPOUT1 (SPOUT domain containing methyltransferase 1),-1.2,active
TGFB1I1 (transforming growth factor beta 1 induced transcript 1),-1.59,active
BTC (betacellulin),0.811,inactive
CHIC1 (cysteine rich hydrophobic domain 1),-0.519,inactive
BLOC1S1 (biogenesis of lysosomal organelles complex 1 subunit 1),-0.32,inactive
POP1 (POP1 ribonuclease P/MRP subunit),-0.816,inactive
MEAF6 (MYST/Esa1 associated factor 6),-1.2,active
NMU (neuromedin U),-2.01,active
PDE8A (phosphodiesterase 8A),0.655,inactive
MEP1A (meprin A subunit alpha),0.592,inactive
ZNF366 (zinc finger protein 366),-1.08,active
PPARA (peroxisome proliferator activated receptor alpha),-1.02,active
JAG2 (jagged canonical Notch ligand 2),-3.07,active
"GRPEL2 (GrpE like 2, mitochondrial)",-0.597,inactive
CTCFL (CCCTC-binding factor like),-0.18,inactive
ABCG2 (ATP binding cassette subfamily G member 2 (JR blood group)),1.88,active
LIMS3 (LIM zinc finger domain containing 3),-0.681,inactive
VGLL1 (vestigial like family member 1),-0.47,inactive
ZNF384 (zinc finger protein 384),1.2,active
NCMAP (non-compact myelin associated protein),1.12,active
TNPO2 (transportin 2),-1.27,active
PIGT (phosphatidylinositol glycan anchor biosynthesis class T),-0.128,inactive
TAS1R1 (taste 1 receptor member 1),0.31,inactive
AASDHPPT,-1.21,active
UNC80 (unc-80 subunit of NALCN channel complex),0.0728,inactive
IL1RAPL2 (interleukin 1 receptor accessory protein like 2),-1.78,active
BCL9 (BCL9 transcription coactivator),0.203,inactive
TUBGCP6 (tubulin gamma complex component 6),0.448,inactive
TOMM6 (translocase of outer mitochondrial membrane 6),-4.16,active
FSHB (follicle stimulating hormone subunit beta),-1,active
CCNA1 (cyclin A1),1.42,active
IL10RA (interleukin 10 receptor subunit alpha),-2.22,active
FAM3D (FAM3 metabolism regulating signaling molecule D),-2.5,active
KRT79 (keratin 79),0.667,inactive
FLVCR1 (FLVCR choline and heme transporter 1),-0.572,inactive
ARNT (aryl hydrocarbon receptor nuclear translocator),-0.124,inactive
MEF2D (myocyte enhancer factor 2D),-1.24,active

Laid out differently: 21 of the entries above.
| gene | z-score vs non-targeting control | Outcome |
| --- | --- | --- |
| PPL (periplakin) | -0.851 | inactive |
| CRYBB1 (crystallin beta B1) | -0.761 | inactive |
| SLC1A5 | -0.72 | inactive |
| SLC25A12 | -1.1 | active |
| PCDHGA8 (protocadherin gamma subfamily A, 8) | 0.886 | inactive |
| CYYR1 (cysteine and tyrosine rich 1) | -0.819 | inactive |
| EHD2 (EH domain containing 2) | -1.76 | active |
| ZNF415 (zinc finger protein 415) | -1.26 | active |
| PTGES2 (prostaglandin E synthase 2) | -1.22 | active |
| NMS (neuromedin S) | -1.07 | active |
| STAP2 (signal transducing adaptor family member 2) | -0.931 | inactive |
| RAB13 (RAB13, member RAS oncogene family) | -1.15 | active |
| PSMA4 (proteasome 20S subunit alpha 4) | 2.16 | active |
| NHLH1 (nescient helix-loop-helix 1) | -1.12 | active |
| RAB5IF (RAB5 interacting factor) | 0.95 | inactive |
| PDE6H (phosphodiesterase 6H) | 1.13 | active |
| THOC3 (THO complex subunit 3) | 0.0408 | inactive |
| SDCBP2 (syndecan binding protein 2) | -0.733 | inactive |
| SMG7 (SMG7 nonsense mediated mRNA decay factor) | -0.862 | inactive |
| TH (tyrosine hydroxylase) | -1 | inactive |
| CPA1 (carboxypeptidase A1) | 0.575 | inactive |
